Assay results reported in patent US20140287419A1, “Compositions Having Dicamba Decarboxylase Activity and Methods of Use” (priority 2013, published 2014).

Experiment: Saturation mutagenesis of SEQ ID NO:109, dicamba decarboxylation activity of point mutants
Conditions: rank of the point mutant among saturation mutagenesis variants of SEQ ID NO:109

B1: A328D: point mutation A328D of SEQ ID NO:109 (protein)
chain: MAQGKVALEEHFAIPETLQDSAGFVPGDYWKELQHRLLDIQDTRLKLMDAHGIETMILSLNAPAVQAIPDRRKAIEIARRANDVLAEECAKRPDRFLAFAALPLQDPDAATEELQRCVNDLGFVGALVNGFSQEGDGQTPLYYDLPQYRPFWGEVEKLDVPFYLHPRNPLPQDSRIYDGHPWLLGPTWAFAQETAVHALRLMASGLFDEHPRLNIILGHMGEGLPYMMWRIDHRVAWVKLPPRYPAKRRFMDYFNENFHITTSGNFRTQTLIDAILEIGADRILFSTDWPFENIDHASDWFNATSIAEADRVKIGRTNARRLFKLDGD
modifications: Dicamba decarboxylase variant clone DC.4.032
Variant Ranking by Activity: 13
